In one test the target is hNav 1.5 (human, UniProt Q14524). The test is described as follows: cell-based or functional assay.
GWCGDAGATCGKLRLYCCSGFCDCYTKTCKDKSSA [C.geo1[cystamine]] had an IC50 of over 10000 nM.

For the molecule GWCGDAGATCGKLRLYCCSGFCDCYTKTCKDKSSA [C.geo1[1-35]], the 50% inhibitory concentration (IC50) was over 10000 nM.

Consider GWCGDAGATCGKLRLYCCSGFCDCYTKTCKDKSSA [C.geo1[desGSH]], for which the IC50 was over 10000 nM.

In another test the target is human NaV1.7 voltage-gated sodium channel (human, UniProt Q15858). The test is described as follows: cell-based or functional assay.
Take GWCGDAGATCGKLRLYCCSGFCDCYTKTCKDKSSA [C.geo1[C24Cys(Acm)]]: the “IC50, block of hNaV1.7” value was over 1000 nM.

With GWCGDAGATCGKLRLYCCSGFCDCYTKTCKDKSSA (Pen at 24; structure printed only as a drawing) [C.geo1[C24Pen]], the “IC50, block of hNaV1.7” value is over 1000 nM.

For the molecule GWCGDAGATCGKLRLYCCSGFCDCYTKTCKDKSSA (HoCys at 24; structure printed only as a drawing) [C.geo1[C24HoCys]], the “IC50, block of hNaV1.7” value was 1500 nM.

One may read the IC50 as the concentration at which inhibition is half-maximal.

Values taken from patent US20150322120A1, “SODIUM CHANNEL SENSITIVE CONOPEPTIDES AND ANALOGS, INCLUDING COMPOSITIONS AND METHODS THEREOF” (University of Utah Research Foundation, published 2015).
